# Assay results published in patent publication US20260069689A1, “ANTI-SARS-COV-2-SPIKE GLYCOPROTEIN ANTIBODIES AND ANTIGEN-BINDING FRAGMENTS” (Regeneron, published 2026).
# What was measured:
# [1] = target: SARS-CoV-2 RBD.mmh (Spike amino acids Arg319-Phe541 with C-terminal myc-myc-6-Histidine tag) (SARS-CoV-2, UniProt P0DTC2 319-541)
# [2] = target: T1, SARS-COV-2 RBD-MMH (SARS-COV-2 RBD extracellular domain with C-terminal myc-myc-hexahistidine tag) (SARS-CoV-2); assay: SPR 37C, mAb captured, 90 nM RBD-MMH, dissociation pH 6.0
# [3] = target: T1, SARS-COV-2 RBD-MMH (SARS-COV-2 RBD …); assay: SPR 37C, mAb captured, 90 nM RBD-MMH, dissociation pH 7.4
# [4] = target: full-length SARS-CoV-2 spike protein (Wuhan-Hu-1) on Jurkat/hCD20 cells (SARS-CoV-2, UniProt P0DTC2 14-1273); assay: cell-based or functional assay
Binder,% Blocking at 100 nM mAb concentration [1] [%],RBD.mmh Bound at pH 7.4 (RU) [2] [RU],RBD.mmh Bound at pH 7.4 (RU) [3] [RU],koff [2] [s⁻¹],koff [3] [s⁻¹],"EC50 [M] of ADCP, macrophages, Jurkat/hCD20/SARS-CoV-2 spike cells [4] [M]","Max % ADCP, macrophages, Jurkat/hCD20/SARS-CoV-2 spike cells [4] [%]"
"mAb14283 (antibody, V domains shown) VH: QVQLQESGPGLVKPSGTLSLTCDVSGGSISSNNWWSWVRQRPGKGLQWIGEIYHNENTNYNPSLKSRVIMSIDKSKNQFSLKLTSVTAADTAVYYCARGDVLDWFDPWGQGTLVTVSS VL: QSALTQPASVSGSPGQSTTISCTGTSSDVGGYNYVSWYQQYPGKAPKLMIYDVTNRPSGVSHRFSGSKSGNTASLTISGLQAEDEADYYCSSYTSSSTVIFGGGTKLTVLG",97,86.3,87.7,,,,
"mAb14258 (antibody, V domains shown) VH: QLQLQESGPGLVKPSETLSLICTGSGDSISSSHYYWGWIRQPPGKGLEWIGSTYFSGSTYYNPSLKSRVSISVDTSKNQVSLKLISVTAADTAVYYCAREMGATLGDYWGPGTLVTVSS VL: QSVLTQPPSASGTPGQRVTISCSGSSSNIGNNYVYWYQQFPGTTPRLLIYRNNERPSGVPDRFSGSKSGTSASLVISGLRSEDEADYYCAAWDDSLSAHYVFGTGTKVTVLG",93,85,85.9,0.000548,0.00213,,
"mAb14282 (antibody, V domains shown) VH: QVQLVQSGAEVKKPGASVKVSCKASGYIFTDHYMHWVRQAPGQGLEWMGWINPNSGATNYAQNFQGRVTMTRDTSIITVYMELSRLRSDDTAVYYCARDSSPYMIRYTMDVWGQGTTITVSS VL: QSALTQPASVSGSPGQSITISCTGTSSDVGSYNLVSWYQQHPGKAPKLMIYELTKRPSGVSNRFSGSKSGNTASLTISGLQAEDEADYYCSSYRGSVTDVVFGGGTKLTVLG",96,83.5,73.5,,,,
"mAb14314 (antibody, V domains shown) VH: RVTLRESGPALVKPTQTLTLTCTFSGFSLYSSGMSVSWIRQPPGKALEWLARIDWDDDEYYSSFLKTRLTISKDISKNQVVLTMTNLDPVDTATYYCVRPRYSSNFGFEYWGQGTLVTVSS VL: QSVLTQPPSVSAAPGQKVTISCSGSISNIGNNYVSWYQQLPGTAPKLLIYDNDKRPSGIPDRFSGSRSGTSATLGITGLQTGDEADYYCGTWDSSLTAYVFGTGTKVTVLG",,,,,,1.12e-09,16.7
"mAb14312 (antibody, V domains shown) VH: EVQLVESGGGLVQPGGSLRLSCAASGFTVSRSYMTWVRQAPGKGLEWVSVIFTGGRTDHADSVKGRFTISRHNSKNTLYLQMNSLRTEDTAVYYCARVAIVGATGAFDIWGQGTMVTVSS VL: QSVLTQPPSVSGAPGQRVTISCTGSSSNIGAGDDVHWYQQLPGTAPKLLIYGNSNRPSGVPDRFSGSKSGTSASLAITGLQAEDEADYYCQSYDSSLSGSVVFGGGTKLTVLG",,,,,,1.69e-11,27.8
"mAb14257 (antibody, V domains shown) VH: EVQLVESGGGLVQPGGSLRLSCAASGFTVSRSYMNWVRQAPGKGLEWVSVVFTGGTTKHTDSVKGRFTISRDNSMNTLYLQMNSLRPEDTAVYYCARVAIVETTGAFDIWGQGTMVTVSS VL: QSVLTQPPSVSGAPGQRVTISCTGTSSNIGADFDVHWYQQFPGTAPKLLIYGHTNRPSGIPDRFSGSKSGTSASLAITGLQAEDEADYYCQSYDSSLSGSVVFGGGTKLTVLG",95,91.3,82.3,,,,
"mAb14259 (antibody, V domains shown) VH: EVQLVESGGGLVQPGGSLRLSCAASGFPFSTYEMNWVRQAPGKGLEWVSYISSSGNTIYYADSVKGRFTISRDNAKNSLYLQMNTLRAEDTAVYYCARDAVRDHDILTDPATFDPWGQGTLVTVSS VL: DIVMTQSPLSLPVTPGEPASISCRSSQTLLHSNGYNYLDWYLQKPGQSPQLLIHLGSNRASGVPDRFSGSGSVTDFTLKISRVEAEDVGVYYCMQALQTPYTFGQGTKLEIKR",,,,,,,39.6
"mAb14315 (antibody, V domains shown) VH: QVQLVQSGAEVKKPGSSVKVSCKASGDTFSTYAINWVRQAPGQGLEWMGRFIHIFGTANYAQKFQGRVTITADESTSTAYMELRSLRSEDTAVYYCARDGVDYGDYRPDYWGQGTLVTVSS VL: EIVLTQSPGTLSLSPGERATLSCRASQSVSSNYLAWYQQKPGQAPRLLIYGASSRATGIPERFSGSGSGTDFTLTISRLEPEDFAVYYCQQYGSSLYTFGQGTKLEIKR",,,,,,6.3e-11,34.8
"mAb14280 (antibody, V domains shown) VH: QVQLVQSGAEVKKPGASVRVSCKASGYTFTGNYIHWVRQAPGQGLEWMAWINPNSGGKNYAQKFQGRVTLTRDTSVNTAYMELSRLRSDDTAMYYCARDVNYNILTGPGGLWGQGTLVTVSS VL: QSALTQPPSASGSPGQSVTISCTGTSSDVGGYNFVSWYQQHPGKAPKLMIYEVSKRPSGVPDRFSGSKSGNTASLTVSGLQAEDEADYYCSSYAGSNNFVFGTGTKVTVLG",98,78.4,72.4,,,,
"mAb14295 (antibody, V domains shown) VH: QLQLQESGPGLVKPSETLSLTCTVSGGSISSSGHYWGWIRQSPGKGLDWIGSIYYSGSTYYNPSLKSRVTISVDTSKNQFSLKLNSVTAADTAVYFCARLEAYCSGDTCHYFYGLDVWGQGTTVTVSS VL: DIQMTQSPSSLSASVGDRVTITCRASQSINTYLNWYQQKPGKAPNLLIDGASSLQSGVPSRFSGSGSGTDFILTISSLRPEDFATYYCQQSYSIPLTFGGGTRVEIKR",,,,,,4.57e-10,35.3
"mAb14255 (antibody, V domains shown) VH: QVQLQESGPGLVKPSETLSLTCTVSGGSISGYYWSWIRQPPGKGLDWIGYIYYRGNTNYNPSLKSRVTISVDTSNNQFSLKLSSVTAADTAVYYCARYGEGYGDASGYHFDYWGQGTLVTVSS VL: QSALTQPASVSGSPGQSITISCTGTSSDVGSYNLVSWYQQHPGKAPKLMIYEDSKRPSGVANPFSGSKSGNTASLTISGLQAEDEADYYCSSYAGSSTWVFGGGTKLTVLG",92,96.4,97.5,,,,
"mAb14316 (antibody, V domains shown) VH: QVQLVQSGAEVKKPGSSVKVSCKAPGGTFSTYAINWVRQAPGQGLEWMGRIVPFFGTTNYAQKFQGRVTITADESTSTAYMELSSLTSEDTAVYYCARGPRPFGELLYWGQGTLVTVSS VL: DIQMTQSPSSLSASVGDRVTITCQASQDISNYLNWYQQKPGKAPKLLIYDASNLETGVPSRFSGSGSGTDFTFTISSLQAEDIATYYCQQYDNLLFTFGPGTKVDIKR",,,,,,2.54e-10,37.7
"mAb14230 (antibody, V domains shown) VH: EVQLVESGGGLIQPGRSLRLSCAASGFTFDDYAMHWVRQAPGKGLEWVSGISWNSVSIDYADSVKGRFTISRDNAKNSLYLQMTSLTVEDTALYYCAKAFGYETLTGSDYFAYWGPGTLVTVSS VL: EIVLTQSPGTLSLSPGERATLSCRASQTVISTYLAWYQQKPGQSPRLLIYGASSRATGIPDRFSGSGSGTDFTLTISRLEPEDFAVYYCQQYGSSPQLTFGGGTKVEIKR",85,70.7,67.6,,,,
"mAb14247 (antibody, V domains shown) VH: QITLKESGPTLVKPTQTLTLTCTFSGFSLSTSAVGVGWIRQPPGKALEWLALIYWDDDKRYSPSLKSRLTITKDTSKNQLVLTMTNVDPVDTATYYCAHHTIQLIFDYWGQGTLVTVSS VL: QSALTQPASVSGSPGQSITISCTATSSDVGNYNYVSWYQQHPGKAPKLMIYEVSNRPSGVSNRFSGSKSGNTASLTISGLQAEDEADYYCSSYTSSSTPLVFGGGTKLTVLG",95,43.8,40.8,,,,
"mAb14232 (antibody, V domains shown) VH: QITLKESGPTLVKPTQTLTLTCTFSGFSLSASGVGVGWIRQPPGKALEWLALIYWDDDKRYSPSLKSRLTITKDTSKNQVVLTMTNMDPVDTATYYCAQHKVATIFDYWGQGTLVTVSS VL: QSALTQPPSASGSPGQSVTISCTATSSDVGNYNYVSWYQQHPGKAPKLMIYEVTKRPSGVPDRFSGSKSGNTASLTVSGLQAEDEADYYCSSYAGSWGVFGGGTKLTVLG",,23,8.2,,,,
"mAb14256 (antibody, V domains shown) VH: QVQLQESGPGLVKPSETLSLTCTVSGGSISSHYWSWIRQPPGKGLEWIGYIYYSGSSNYNPSLKSRVTISVDTSKNQFSLKLNSVTAADTAVYYCARHYDILTGFDWFDPWGQGTLVTVSS VL: QSVLTQPPSVSGAPGQRVTISCTGSSSNIGTHYDVHWYQQLPGTAPKLLIYGNSNRPSGVPDRFSGSKSGTSASLAITGLQAEDEADYYCQSFDNSLTAPYVFGTGTKVTVLG",,84.4,80.2,,,,
"mAb14281 (antibody, V domains shown) VH: QVQLVQSGADVKKPGASVKVSCKTSGYIFTGYYIHWVRQAPGQGLEWMGWINPNSGGTNSAQKFQGRVTMTRDTSISTVYMELSRLRSDDTAVYYCAKSNSFSVLDYNFDYWGQGTLVTVSS VL: SSELTQDPAVSVALGQTVRITCQGDSLRSYYASWYQQKPGQAPVLVIYDKNNRPSGIPDRFSGSSSGNTASLTITGAQAEDEADYYCNSRDSSRNHLVVFGGGTKLTVLG",100,85.2,83.5,,,,
